Reference: PMC2515342 (PLoS Pathogens, 2008)

The chains behind the UniProt entries cited, without tags or fusion partners. Residues count along the entry.
UniProt A0A6L8PY92, 27-152 limits assumed: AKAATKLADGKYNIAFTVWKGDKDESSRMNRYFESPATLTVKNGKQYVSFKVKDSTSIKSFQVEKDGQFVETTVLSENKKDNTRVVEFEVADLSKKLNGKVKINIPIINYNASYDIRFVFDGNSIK

Molecular target: T1, IsdX1 (Bacillus anthracis, UniProt A0A6L8PY92)
T1 construct: gene GBAA_4788
Assay: biochemical

## C=CC1=C(C)C2=Cc3c(C=C)c(C)c4[n]3[Fe]([Cl])[n]3c(c(C)c(CCC(=O)O)c3=CC3=NC(=C4)C(C)=C3CCC(=O)O)=CC1=N2 [hemin chloride]
  Kd: 5.4 µM
